In paper PMC7277663:
The exact form of at least one protein or probe is not confirmed.

These sequences were tested on MucR (assay: EMSA). Conditions: 6.25 mM Mg2+; 25 mM HEPES pH 7.9, 50 mM KCl, 6.25 mM MgCl2, 5% glycerol; […]) or 0.4-1.6 ug ([…], room temperature; recombinant protein.

| Sequence | binding result |
| --- | --- |
| CACACAATATATAGCCCCCT (double strand) [vp1] | binds |
| ACTACCCAATAATGACCGATATCGCTGATCTATAATTAAGGCTATCATAATAATCGTCCA (double strand) [vir60.2] | binds |
| CATTCACACAATATATAGCCCCCTCACAAGCATATTTGTCCATATATCGGCTTAAACAAC (double strand) [vir60.1] | binds |
